Pooled drug test results. Numbers come from NIAID ChemDB, via PubChem.

Common to all: growth or infection tests

ECn is the concentration giving n% inhibition of infection, replication or growth. a–b is a range or a potency band. Conditions beyond the fields shown may differ between rows. Inhibition is in % at the dose shown (toxicity tests: loss of growth or viability). A number after MIC or MFC names an inhibition level or a share of isolates. Fold resistance: result on the changed form divided by that on wild type. An empty or dashed field is not shown.

SMILES	strain	mutations	read-out	method	cells	setting	tested at	organism	result
NC1CCN(c2c(F)cc3c(=O)c(C(=O)O)cn(C4CC4)c3c2Cl)C1	10 strains (oxacillin-resistant)		MIC90					Staphylococcus aureus	1 µg/mL
Nc1ncnc2c1ncn2C[C@H](O)CO	TRVL 11573		EC50	cytopathic effect	VERO			Tacaribe virus	15 µg/mL
CCC(CCC(C)C1CCC2C3C[C@@H](O)[C@@]4(O)C[C@@H](O)CCC4(C)C3CCC12C)C(C)C			inhibition	antigen	HepG2 2.2.15		12.5 µg/mL	Hepatitis B virus	12.2%
C#CC[C@@H](C(=O)N[C@H](/C=C/C(=O)OCC)C[C@@H]1CCNC1=O)n1cccc(NC(=O)c2cc(C)on2)c1=O	Serotype 52		inhibition	cytopathic effect / XTT	H1-HELA		0.016 µM	Rhinovirus	90%
Nc1ncnc2c1ncn2[C@H]1CC[C@@H](CO)O1	LAV-2		EC50	virus yield	CEM			HIV-2	<1 µM
COc1cc(C[C@H](C)[C@H](C)Cc2ccc(O)c(O)c2)ccc1O	CCC 123-2000		MIC80	broth dilution				Candida kefyr	31.5 µg/mL
N[C@@H](C(=O)N[C@@H]1C(=O)N2C(C(=O)O)=C(Cl)CS[C@H]12)c1ccccc1	44 strains		MIC90					Haemophilus influenzae	2 µg/mL
Nc1ncnc2c1ncn2C[C@@H](CO)OCP(=O)(O)O	WILD TYPE		EC50	plaque count	C1271			Mouse cytomegalovirus	0.9 µM
c1cc(CN2CCCNCCNCCCNCC2)ccc1CN1CCCNCCNCCCNCC1	SW20 CLADE C R5X4		inhibition	p24	PBMC		0.5 µM	HIV-1	100%
C[C@H]1[C@H](C)CC[C@]2(C(=O)O)CC[C@]3(C)C(=CC[C@@H]4[C@@]5(C)CC[C@H](O)C(C)(C)[C@@H]5CC[C@]43C)[C@H]12	TYPE 8		EC50	cytopathic effect	BCC-1/KMC			Adenovirus	>20 µg/mL
O=c1[nH]c(=O)n([C@H]2C[C@H](O)[C@@H](CO)O2)cc1/C=C/Br			inhibition		P3HR-1		100 µM	Epstein-Barr virus	5%
NC(=O)c1[nH]nc([C@@H]2O[C@H](CO)[C@@H](O)[C@H]2O)c1O	58-13		EC50	cytopathic effect	HeLa			Respiratory syncytial virus	0.08 µg/mL
NC(=O)c1cn([C@@H]2O[C@H](CO)[C@@H](O)[C@@H]2O)c2ncnc(N)c12	SMITH		EC50	plaque count	MEF			Mouse cytomegalovirus	8 µM
C[C@@H](O)[C@H]1C(=O)N2C(C(=O)O)=C(SCCN=CN)C[C@H]12	24 strains (ofloxacin-susceptible)		MIC50					Staphylococcus aureus	4 µg/mL
C[C@@H](O)C1=C[C@@H](n2cnc3c(N)ncnc32)[C@H](O)[C@@H]1O	Sugiyama		EC50	plaque count	VERO			Measles virus	0.15 µg/mL
Nc1ncnc2c1ncn2C[C@H]1COP(=O)(O)CO1	13 isolates		EC50	plaque count	HEL			Varicella zoster virus	0.34 µM
Nc1ccn([C@@H]2C=C(CO)[C@@H](O)[C@@H]2O)c(=O)n1	TRVL 11573		EC50	cytopathic effect	VERO			Tacaribe virus	0.03 µg/mL
Nc1ncnc2c1ncn2C[C@@H](CO)OCP(=O)(O)O			inhibition		P3HR-1		10 µM	Epstein-Barr virus	5%
C[C@@]1(O)[C@H](O)[C@@H](CO)O[C@H]1c1coc2c(N)ncnc12			inhibition	MTT	HepG2-T5B		10 µg/mL	Hepatitis C virus	0%
C#C[C@]1(CO)O[C@@H](n2cnc3c(N)nc(F)nc32)CC1O	ROD9	K65R Q151M	fold resistance	β-galactosidase / absorbance	MAGIC-5A			HIV-2	0.5
CC(C)(CO)C(=O)SCCOP(=O)(NCc1ccccc1)OC[C@H]1O[C@@H](n2cnc3c(=O)[nH]c(N)nc32)[C@](C)(O)[C@@H]1O	GT1a	E295G	fold resistance	replicon	Replicon cells			Hepatitis C virus	1.3
Nc1nccc2c1ncn2[C@@H]1C[C@H](CO)[C@@H](O)[C@H]1O			EC50	cytopathic effect	HeLa			Vesicular stomatitis virus	0.3 µg/mL
OC1c2ccccc2C=Cc2ccccc21	TYPE 14		EC50	cytopathic effect	HELA-H1			Rhinovirus	15 µM
N[C@@H]1CN(c2c(F)cc3c(=O)c(C(=O)O)cn([C@@H]4C[C@@H]4F)c3c2Cl)CC12CC2	24 strains (ofloxacin-susceptible)		MIC50					Staphylococcus aureus	0.03 µg/mL
Nc1ccn(C[C@@H](CO)OCP(=O)(O)O)c(=O)n1	Foscarnet-resistant		EC50	plaque count	C1271			Mouse cytomegalovirus	0.3 µM
Nc1nc(=O)n([C@@H]2CS[C@H](CO)O2)cc1F	WILD TYPE		EC50		HepG2			Duck hepatitis B virus	0.058 µM
O=C(O)P(=O)(O)O	IIIB		inhibition	RT activity	PBL	21 d	256 µM	HIV-1	100%
NC(=O)c1c[se]c([C@@H]2O[C@H](CO)[C@@H](O)[C@H]2O)n1	COAN3739		EC50	cytopathic effect	VERO			Pichinde virus	4 µg/mL
NC(=O)c1[nH]nc([C@@H]2O[C@H](CO)[C@@H](O)[C@H]2O)c1O	NEW YORK		EC50	cytopathic effect / visual reading	VERO			West Nile virus	2.1 µg/mL
NC(=O)c1[nH]nc([C@@H]2O[C@H](CO)[C@@H](O)[C@H]2O)c1O	TRVL 11573		EC50	cytopathic effect	VERO			Tacaribe virus	0.4 µg/mL
Cc1cn([C@H]2C[C@H](N=[N+]=[N-])[C@@H](CO)O2)c(=O)[nH]c1=O			EC90	p24 / ELISA	Macrophage			SHIV	0.9 µM
N#Cc1c(C(N)=O)ncn1[C@@H]1O[C@H](CO)[C@@H](O)[C@H]1O	LONG		EC50	cytopathic effect	HeLa			Respiratory syncytial virus	>500 µg/mL
Nc1nc2c(ncn2CC(CO)OCP(=O)(O)O)c(=O)[nH]1	Foscarnet-resistant		EC50	plaque count	C1271			Mouse cytomegalovirus	0.8 µM
O=c1c(O)c(-c2ccc(O)c(O)c2)oc2cc(O)cc(O)c12	Clinical isolate 1		MIC50	broth dilution				Candida tropicalis	>128 µg/mL
CC(=O)NC[C@H]1CN(c2ccc(N3CCOCC3)c(F)c2)C(=O)O1	Penicillin-resistant		MIC50					Streptococcus pneumoniae	0.5–1 µg/mL
CC(=O)OC[C@H]1O[C@@H](n2ncc(=O)[nH]c2=O)[C@H](OC(C)=O)[C@@H]1OC(C)=O	Uganda		EC50	cytopathic effect / visual reading	VERO			West Nile virus	0.6 µg/mL
C=CCc1ccc(O)c(-c2ccc(O)c(CC=C)c2)c1	YL 336		MIC	broth dilution				Candida albicans	128 µg/mL
NC(=O)c1ncn([C@@H]2O[C@H](CO)[C@@H](O)[C@H]2O)n1	LONG		inhibition	plaque count	HEP-2		1 µg/mL	Respiratory syncytial virus	30%
O=C(O)[C@H]1O[C@@H](Oc2cc3oc(-c4ccccc4)cc(=O)c3c(O)c2O)[C@H](O)[C@@H](O)[C@@H]1O	TYPE 8		EC50	cytopathic effect	BCC-1/KMC			Adenovirus	>50 µg/mL
CO/N=C(/C(=O)N[C@@H]1C(=O)N2C(C(=O)O)=C(COC(N)=O)CS[C@H]12)c1ccco1	44 strains		MIC90					Haemophilus influenzae	16 µg/mL
C[C@@H]1CN(c2c(F)c(N)c3c(=O)c(C(=O)O)cn(C4CC4)c3c2F)C[C@H](C)N1	25 strains (methicillin-susceptible)		MIC90					Staphylococcus aureus	0.25 µg/mL
c1ccc([Se][Se]c2ccccc2)cc1			MIC	broth dilution				Candida dubliniensis	2–8 µg/mL
Nc1ccn(C[C@H]2COP(=O)(O)CO2)c(=O)n1	13 isolates		EC50	plaque count	HEL			Varicella zoster virus	1.42 µM
Nc1nc2c(ncn2COC(CO)CO)c(=O)[nH]1	Foscarnet-resistant		EC50	plaque count	C1271			Mouse cytomegalovirus	6.3 µM
c1ccc2c(c1)oc1ccccc12	TYPE 14		EC50	cytopathic effect	HELA-H1			Rhinovirus	>200 µM
CC[C@H](C)[C@H]1NC(=O)[C@@H](NC(=O)[C@@H](CC(C)C)NC)[C@@H](C)OC(=O)[C@H](Cc2ccc(OC)cc2)N(C)C(=O)[C@@H]2CCCN2C(=O)[C@H](CC(C)C)NC(=O)[C@@H](C)C(=O)[C@H](C(C)C)OC(=O)C[C@@H]1O	TYPE 3		EC50	plaque count	LLC-MK2			Dengue virus	>2.5 µg/mL
O=C(O)/C=C/c1ccc(O)cc1	TYPE 11		EC50	cytopathic effect	BCC-1/KMC			Adenovirus	43.8 µg/mL
C[C@H]1NCc2cc(-c3ccc4c(=O)c(C(=O)O)cn(C5CC5)c4c3OC(F)F)ccc21	18 strains (beta-lactamase-negative)		MIC50					Haemophilus influenzae	0.008 µg/mL
CO/N=C1\CN(c2nc3c(cc2F)c(=O)c(C(=O)O)cn3C2CC2)CC1CN	38 strains (ampicillin-susceptible)		MIC50					Haemophilus influenzae	≤0.004 µg/mL
NC(=O)c1ncn([C@@H]2O[C@H](CO)[C@@H](O)[C@H]2O)n1	TRVL 11573		EC50	cytopathic effect	VERO			Tacaribe virus	1.2 µg/mL
COc1cc(C(=O)O)ccc1O	TYPE 11		EC50	cytopathic effect	BCC-1/KMC			Adenovirus	>200 µg/mL
C[C@@]1(O)[C@H](O)[C@@H](CO)O[C@H]1n1ccc2c(N)ncnc21			inhibition	MTT	HepG2-T5B		2 µg/mL	Hepatitis C virus	6.15%
NC12CC3CC(CC(C3)C1)C2	H1N1 A/TEXAS/36/91		EC50	neutral red / visual reading	MDCK			Influenza A virus	3 µM
Nc1nc(N)c2ncn([C@H]3CO[C@@H](CO)O3)c2n1	WILD TYPE		EC50		HepG2			Duck hepatitis B virus	8.3 µM
O=C(O)c1cc2oc3ccccc3c2cc1O	TYPE 14		EC50	cytopathic effect	HELA-H1			Rhinovirus	25 µM
CO[C@@H]1[C@@H](O[C@@H]2O[C@H](C)[C@@H](O[C@H]3C[C@@](C)(O)[C@@H](O)[C@H](C)O3)[C@H](N(C)C)[C@H]2O)[C@@H](CC=O)C[C@@H](C)[C@@H](O[C@H]2CC[C@H](N(C)C)[C@H](C)O2)/C=C/C=C/C[C@@H](C)OC(=O)C[C@H]1O			EC50					Toxoplasma gondii	>1 µg/mL
N#CC[C@H](C1CCCC1)n1cc(-c2ncnc3[nH]ccc23)cn1			EC50	p24 / ELISA	Macrophage			SHIV	0.4 µM
C[C@@H]1CN(c2c(F)c(N)c3c(=O)c(C(=O)O)cn(C4CC4)c3c2F)C[C@H](C)N1	Clinical isolate SP30		MIC					Streptococcus pneumoniae	0.25 µg/mL
Nc1ncnc2c1c(Cl)cn2[C@@H]1O[C@H](CO)[C@@H](O)[C@H]1O	LONG		EC50	cytopathic effect	HeLa			Respiratory syncytial virus	>4 µg/mL
COc1cc(/C=C/C(=O)O)ccc1O	TYPE 8		EC50	cytopathic effect	BCC-1/KMC			Adenovirus	52.5 µg/mL
O=c1cnn([C@@H]2O[C@H](CO)[C@@H](O)[C@H]2O)c(=O)[nH]1	Uganda		EC50	cytopathic effect	VERO			West Nile virus	0.9 µg/mL
Nc1ncnc2c1ncn2CCOCP(=O)(O)O	Oka BVDU-resistant		EC50	cytopathic effect	HEL			Varicella zoster virus	27.5 µM
Nc1cc2[nH]cnc2c(=O)[nH]1	S-8		EC50	cytopathic effect	HeLa			Respiratory syncytial virus	1.8 µg/mL
CN(C)[C@@H]1C(=O)C(C(N)=O)=C(O)[C@@]2(O)C(=O)C3=C(O)c4c(O)c(NC(=O)CN5CCOCC5)cc(F)c4C[C@H]3C[C@@H]12	160-tet		MIC	agar diffusion				Streptococcus pneumoniae	1 µg/mL
N/C(=N/O)c1cn([C@@H]2O[C@H](CO)[C@@H](O)[C@@H]2O)c2ncnc(N)c12	SMITH		EC50	plaque count	MEF			Mouse cytomegalovirus	120 µM
Nc1nccc2c1ncn2[C@@H]1C[C@H](CO)[C@@H](O)[C@H]1O			EC50	cytopathic effect	E6SM			Vesicular stomatitis virus	2 µg/mL
Nc1nc(=O)n2ccn([C@@H]3O[C@H](CO)[C@@H](O)[C@H]3O)c2n1	ATCC VR-82		EC50	cytopathic effect	VERO			West Nile virus	<4.6 µg/mL
Nc1nc2c(ncn2[C@@H]2O[C@H](CO)[C@H]2CO)c(=O)[nH]1	YS (TK+)		EC50	plaque count	HEL			Varicella zoster virus	0.18 µM
CN1CCN(c2c(F)cc3c(=O)c(C(=O)O)cn4c3c2SCC4)CC1	44 strains		MIC90					Haemophilus influenzae	0.5 µg/mL
Nc1nc2c(ncn2COCCO)c(=O)[nH]1	Foscarnet-resistant		EC50	plaque count	C1271			Mouse cytomegalovirus	20.3 µM
Clc1ccc([Se][Se]c2ccc(Cl)cc2)cc1			MIC	broth dilution				Candida dubliniensis	>64 µg/mL
O=c1[nH]c(=O)n([C@H]2C[C@H](O)[C@@H](CO)O2)cc1-c1ccc(Cl)s1	YS (TK+)		EC50	plaque count	HEL			Varicella zoster virus	0.17 µM
Nc1ncnc2c1ncn2CCOCP(=O)(O)O	WILD TYPE		EC50		LMH			Duck hepatitis B virus	1.8 µM
COc1c(C)c2c(c(O)c1C/C=C(\C)CCC(=O)O)C(=O)OC2	NEW YORK		EC50	cytopathic effect	VERO			West Nile virus	1.4 µg/mL

For reference, 6 entries again:

SMILES,strain,mutations,read-out,method,cells,setting,tested at,organism,result
Nc1ncnc2c1ncn2CCOCP(=O)(O)O,WILD TYPE,,EC50,,LMH,,,Duck hepatitis B virus,1.8 µM
Nc1ncnc2c1ncn2C[C@H](O)CO,TRVL 11573,,EC50,cytopathic effect,VERO,,,Tacaribe virus,15 µg/mL
Nc1ccn(C[C@H]2COP(=O)(O)CO2)c(=O)n1,13 isolates,,EC50,plaque count,HEL,,,Varicella zoster virus,1.42 µM
Nc1nc(N)c2ncn([C@H]3CO[C@@H](CO)O3)c2n1,WILD TYPE,,EC50,,HepG2,,,Duck hepatitis B virus,8.3 µM
Nc1nccc2c1ncn2[C@@H]1C[C@H](CO)[C@@H](O)[C@H]1O,,,EC50,cytopathic effect,E6SM,,,Vesicular stomatitis virus,2 µg/mL
CO/N=C(/C(=O)N[C@@H]1C(=O)N2C(C(=O)O)=C(COC(N)=O)CS[C@H]12)c1ccco1,44 strains,,MIC90,,,,,Haemophilus influenzae,16 µg/mL